Test results as given in the supplement of paper PMC9931576.
Numbering of substitutions follows the chain as printed. Human monoclonal antibodies against the spike receptor-binding domain (heavy:light variable regions). IC50 against pseudoviruses bearing the spike of naturally observed variants; lower = stronger; >10 µg/ml means not reached at the top dose. No active / inactive call. The stated detection limit is 0.0005 µg/ml; values near or below 0.001 µg/ml lie at the floor of the assay.

B1: BD55-1411 (protein)
chain 1: QVQLVESGGGVVQPGRSLRLSCAASGFSFSNYGMHWVRQAPGKGLEWVSLIWYDGSSKYYADSVKGRFTISRDNSKNTMYLHMNSLSAEDTAVYYCARDPRYYDSTGYYNAQYYFDYWGQGTLVTVSS
chain 2: EIVLTQSPATLSLSPGERATLSCRASQSVSSYVAWYQQKPGQAPRLLIGDASNRATGIPARFSASGSGTDFTLTISSLEPEDFAVYYCQQRSNWLWTFGQGTKVEVK
B2: BD55-1429 (protein)
chain 1: EVQLVESGGGLVQPGGSLRLSCSASGFTFSSYAMHWVRQAPGKGLECVSSISSDGGITYYADSVKGRFTISRDNSKNTLYLEMSSLRTEDTAVYYCVKDRPVVFTLFDYWGQGTQVTVSS
chain 2: DIQMTQSPSSLSASVGDRVTITCRASQSISSYLNWYQQKPGKPPKLLIYAASSLQSGVPSRFSGSGSGTDFTLSISSLQPEDFATYYCQQSYTTPYTFGQGTKLEIK
B3: BD55-1432 (protein)
chain 1: EVQLVESGGGLVQPGRSLRLSCAASGFNFDDYAMYWVRQAPGKGLEWVSGISWNSGTIGYADSVKGRFTISRDNAENSLYLQMNRLRAEDTALYYCAKDIEALEGYNGSYGFDYWGQGTLVTVSS
chain 2: QSALTQPASVSGSPGQSITISCTGTSSDVGVYNYVSWYQQHPGKAPKLMIYDVSKRPSGVSNRFSGSKSGNTASLTISGLQAEDEADYYCSSYTSSSTLKFGGGTKLTVL
B4: BD55-1445 (protein)
chain 1: QVQLQESGPGLVKPSETLSLTCTVSGGSITSYYWSWIRQPPGKGLEWIGYIYYSGSTDYNPSLESRVTISVDTSKSQFSLKLTSVTAADTAVYYCARMRGAAGPNYYYYYAMDVWGQGTTVTVSS
chain 2: EIVMTQSPATLSVSPGERATLSCRASQSLSSNLAWYQQKPGQAPRLLIYGASTRATGIPARFSGSGSGTEFTLTISSLQSEDFAVYYCQQYGRTFGQGTKVEIK
B5: BD55-1450 (protein)
chain 1: QVQLVQSGAEVKKPGSSVRVSCKVSGGTFSSYTISWVRQAPGQGLEWMGRIIPILDVANYPQKFQGRVTITADKSTSTAYMELSSLRSEDTAVYYCARLRYGSGLPYGVDVWGQGTTVTVSS
chain 2: DVQMTQSPSSLSASIGDRVTITCQASQDISNYLNWYQQKPGKAPNPLIYDASNLERGVPSRFSGSGSGTEFTFTISSLQPEDIATYYCQQYDNLPWTFGQGTKVEIK
B6: BD55-1451 (protein)
chain 1: EVQLVESGGGLIQPGGSLRLSCTASGVIVSKNYMNWVRQAPGKGLEWVSLIYSGGSTFYADSVRGRFTISRDNSKNTLYLQMNSLRAEDTAVYYCARDLVVYGMDVWGQGTTVTVSS
chain 2: DIQLTQSPSFLSAFVGDRVTITCRASQGISNYLAWYQQKPGKAPKLLIYGASTLQSGVPSRFSGSGSGTDFTLTISSLQPEDFATYYCQLLNSDRYTFGQGTKLEIK
B7: BD55-1453 (protein)
chain 1: EVQLIQSGTEVKKPGESLKISCKGSGYNFARYWIGWVRQMPGKGLEWVGIIYPGDSDTRYSPSFQGQVTISADKSINTAFLQWSSLKASDTAMYYCARRGVDMAALRVFDIWGRGTLVTVSS
chain 2: QSVLTQPPSVSEAPRQRVTISCSGSSSNIENNAVEWYQQLPGKAPKLLIYYDDLLPSGVSDRFSGSKSGTSASLAISGLQSEDEADYYCATWDDRLNGPVFGTGTKVTVL
B8: BD55-1464 (protein)
chain 1: EVQLVESGGGLVQPGGSLRVSCSASGFTFSSYAIHWVRQAQGKGLEYVSAISSNGDITYYADSVKGRFFISRDNSKNTVYLQMSSLRAEDTAVYYCVKDVWGSYTYFDFWGQGTLVTVSS
chain 2: DIQLTQSPSSLSASVGDRVTITCRARQSITGYLNWYQQKPGKAPKVLIYATSTLQSGVPSRFSGSGSGTDFTLTISSLQLEDFATYWCQQSYTTPYTFGQGTKLEIK
B9: BD55-1472 (protein)
chain 1: QITLKESGPTLVKPTQTLTLTCSFSGFSLSTNGMGVGWIRQPPGKALEWLALIYWNDEKRYSPSVKTRLTITKGPSNYQVVLTMTNMDPVDTATYYCGHTYYYDNSGYSFDHWGPGTLVTVSS
chain 2: DIQMTQSPSSVSASVGDRVTITCRASQDIITWLAWYQQKPGKAPKLLIYDASILQSGVPSRFSGSGSGTDFTLTINSLQSEDFATYYCQQTNNFPVTFGQGTRLE
B10: BD55-1499 (protein)
chain 1: QVQLQQWGAGLLKPSETLSLTCAVYGGSFTGYYWSWIRQPPGKGLEWIGEISHSGSTSYNPSLKSRVTISVDTSKNQFSLKLNSVTAADTAVYYCAADPAMVRGVIMGNWFDPWGQGTLVTVSS
chain 2: DIQMTQSPSSLSASVGDRVTITCRASQIISTYLNWYQQKPGKAPKLLIYATSSLQSGVPSRFSGSGSGTDFTLTISSLQPEDFATYYCQQSYVTPPYTFGQGTKLEIK
B11: DXP-604 (protein)
chain 1: B6 chain 1 with T23A, V27I, K31S, N35T, L50V, R64K, N83S, V100G, V101P
chain 2: B6 chain 2 with F14S, N31S, Y32D, K45N, G50A, D70E, L90Q, R95L
B12: BD55-1558 (protein)
chain 1: QVQLQESGPGLVKPSGTLTLSCAVSGAPIISANWWSWVRQRPGEGLEWIGEIYHTGATEYNPSLKRRVIVSLEESRNQFSLTLNSVTAADTAVYYCARVVSTALRYFDFWGQGTLVTVSA
chain 2: DIQMTQSPSSLSASIGGRVTISCRAGQDISKSLSWYQQKPGKAPQLLIYGASTLHYGVPSRFSATGSGTDFTLTISTLHPDDFATYYCQQTYATPRTFGQGTKVDLQ
B13: BD55-1570 (protein)
chain 1: QVQLQESGPGLVKPSQTLSLTCTVSGDSFISGNFYWSWIRQHPGKGLEWIGYIYYSGSTYYNPSLKSRVNISIDRSKNQFSLQLDNVAAADTAVYYCVREVIARRSDGHYPDYFGIDVWGQGTTVTVSS
chain 2: EILMTQSPATLSVSPGQRATLSCRASQSITNNLAWYQHKPGQAPRLLIYGASTRATGIPARFSGSGSGTQFTLTISSLQSEDFAVYYCQQYNNLPPWTFGQGTKVEV

Tests used:
Assay in all cases: pseudovirus neutralization IC50; higher = weaker neutralization
[1] = biological target: SARS-CoV-2 Omicron BA.1 spike pseudovirus
Procedure: (§1)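 Single-round VSV luciferase pseudovirus mixed with antibody dilutions for 1 h and put on Huh-7 cells for about a day; IC50 from the dose curve.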

[2] = biological target: SARS-CoV-2 Omicron BA.2 spike pseudovirus
Procedure: as §1

[3] = biological target: SARS-CoV-2 Omicron BA.2.75 spike pseudovirus
Procedure: as §1

[4] = biological target: SARS-CoV-2 Omicron BA.5 spike pseudovirus
Procedure: as §1

[5] = biological target: SARS-CoV-2 Omicron BQ.1.1 spike pseudovirus
Procedure: as §1

[6] = biological target: SARS-CoV-2 Omicron XBB spike pseudovirus
Procedure: as §1

[7] = biological target: SARS-CoV-2 early D614G spike pseudovirus
Procedure: as §1

Binder | pseudovirus neutralization IC50 [1] [µg/mL] | pseudovirus neutralization IC50 [2] [µg/mL] | pseudovirus neutralization IC50 [3] [µg/mL] | pseudovirus neutralization IC50 [4] [µg/mL] | pseudovirus neutralization IC50 [5] [µg/mL] | pseudovirus neutralization IC50 [6] [µg/mL] | pseudovirus neutralization IC50 [7] [µg/mL]
B1 | > 10 | > 10 | > 10 | > 10 | > 10 | > 10 | 0.0677
B2 | > 10 | > 10 | > 10 | > 10 | > 10 | > 10 | 0.423
B3 | > 10 | > 10 | > 10 | > 10 | > 10 | > 10 | 1.43
B4 | > 10 | > 10 | > 10 | > 10 | > 10 | > 10 | > 10
B5 | > 10 | > 10 | > 10 | > 10 | > 10 | > 10 | 0.0238
B6 | 0.286 | 0.26 | 2.5 | 0.145 | > 10 | > 10 | 0.00173
B7 | 1.87 | 1.21 | 1.31 | 2.5 | 2.61 | 1.29 | 1.49
B8 | > 10 | > 10 | > 10 | > 10 | > 10 | > 10 | > 10
B9 | 0.654 | 0.4 | 0.255 | 0.329 | 0.803 | 0.791 | 2.34
B10 | > 10 | > 10 | > 10 | > 10 | > 10 | > 10 | > 10
B11 | 0.285 | 0.219 | 5.92 | 6.26 | > 10 | > 10 | 0.011
B12 | > 10 | > 10 | > 10 | > 10 | > 10 | > 10 | 7.21
B13 | > 10 | > 10 | > 10 | > 10 | > 10 | > 10 | 3.92
